Data from article PMC7096384, “Antiviral Activity of Chicken Cathelicidin B1 Against Influenza A Virus” (Frontiers in Microbiology, 2020).

Assays:
[1] = tested on: PR8-induced gene expression of cytokines in HD11 macrophages; type: cell-based, chicken
H1N1/PR8 = type: cell-based, Influenza A virus; conditions: pre- or post-incubation of cells with peptide for 1 h, H1N1/PR8, HD11 and MDCK cells

Sequence | PR8-induced gene expression of IFN-β, IL-1β, IL-6, and IL-8 [1] | effect on viral infection when peptide is given before or after virus inoculation (H1N1/PR8)
LLGDFFRKSKEKIGKEFK RIVQRIKDFLRNLVPRTES [LL-37, human cathelicidin, 37 amino acids, used for comparison, reference compound] | the inhibition was not as pronounced as observed for CATH-B1 | 
PIRNWWIRIWEWLNGIRK RLRQRSPFYVRGHLNVTSTPQP [CATH-B1, chicken cathelicidin, 40 amino acids, synthesized by Fmoc-chemistry] | downregulated | did not reduce viral infection
RFGRFLRKIRRFRPKVTITIQGSARF [CATH-2, chicken cathelicidin, 26 amino acids] | the inhibition was not as pronounced as observed for CATH-B1 | 
